Here are results for seven molecules from publication PMC9104152, “Phosphoproteomics Unravel HBV Triggered Rewiring of Host Phosphosignaling Events” (International Journal of Molecular Sciences, 2022).

In this data set the test system is HepG2-NTCP cells. The experiment in a line: TMT-based phosphoproteome profiling of HBV-infected vs mock HepG2-NTCP (HBV/mock ratio). As to conditions: phosphosite abundance ratio of host protein, HBV-infected vs mock HepG2-NTCP, 7dpi, sheet Up-regulated. The arrangement: species or system human.

B1: Q99543 1xPhospho [S] (protein, UniProt Q99543 1-621, looked up)
DnaJ homolog subfamily C …: MLLLPSAADGRGTAITHALTSASTLCQVEPVGRWFEAFVKRRNRNASASFQELEDKKELSEESEDEELQLEEFPMLKTLDPKDWKNQDHYAVLGLGHVRYKATQRQIKAAHKAMVLKHHPDKRKAAGEPIKEGDNDYFTCITKAYEMLSDPVKRRAFNSVDPTFDNSVPSKSEAKDNFFEVFTPVFERNSRWSNKKNVPKLGDMNSSFEDVDIFYSFWYNFDSWREFSYLDEEEKEKAECRDERRWIEKQNRATRAQRKKEEMNRIRTLVDNAYSCDPRIKKFKEEEKAKKEAEKKAKAEAKRKEQEAKEKQRQAELEAARLAKEKEEEEVRQQALLAKKEKDIQKKAIKKERQKLRNSCKTWNHFSDNEAERVKMMEEVEKLCDRLELASLQCLNETLTSCTKEVGKAALEKQIEEINEQIRKEKEEAEARMRQASKNTEKSTGGGGNGSKNWSEDDLQLLIKAVNLFPAGTNSRWEVIANYMNIHSSSGVKRTAKDVIGKAKSLQKLDPHQKDDINKKAFDKFKKEHGVVPQADNATPSERFEGPYTDFTPWTTEEQKLLEQALKTYPVNTPERWEKIAEAVPGRTKKDCMKRYKELVEMVKAKKAAQEQVLNASRAKK
modifications: monophosphorylated
In the case of B1, the HBV/mock is listed as 1.894.

B2: Q99956 1xPhospho [S16(100)] (protein, UniProt Q99956 1-384, looked up)
Dual specificity protein …: MEGLGRSCLWLRRELSPPRPRLLLLDCRSRELYESARIGGALSVALPALLLRRLRRGSLSVRALLPGPPLQPPPPAPVLLYDQGGGRRRRGEAEAEAEEWEAESVLGTLLQKLREEGYLAYYLQGGFSRFQAECPHLCETSLAGRAGSSMAPVPGPVPVVGLGSLCLGSDCSDAESEADRDSMSCGLDSEGATPPPVGLRASFPVQILPNLYLGSARDSANLESLAKLGIRYILNVTPNLPNFFEKNGDFHYKQIPISDHWSQNLSRFFPEAIEFIDEALSQNCGVLVHCLAGVSRSVTVTVAYLMQKLHLSLNDAYDLVKRKKSNISPNFNFMGQLLDFERSLRLEERHSQEQGSGGQASAASNPPSFFTTPTSDGAFELAPT
modifications: phosphorylated S16
Consider B2, for which the HBV/mock was 1.337.

B3: Q99956 1xPhospho [S328(99.7)] (protein, UniProt Q99956 1-384, looked up)
Dual specificity protein …: MEGLGRSCLWLRRELSPPRPRLLLLDCRSRELYESARIGGALSVALPALLLRRLRRGSLSVRALLPGPPLQPPPPAPVLLYDQGGGRRRRGEAEAEAEEWEAESVLGTLLQKLREEGYLAYYLQGGFSRFQAECPHLCETSLAGRAGSSMAPVPGPVPVVGLGSLCLGSDCSDAESEADRDSMSCGLDSEGATPPPVGLRASFPVQILPNLYLGSARDSANLESLAKLGIRYILNVTPNLPNFFEKNGDFHYKQIPISDHWSQNLSRFFPEAIEFIDEALSQNCGVLVHCLAGVSRSVTVTVAYLMQKLHLSLNDAYDLVKRKKSNISPNFNFMGQLLDFERSLRLEERHSQEQGSGGQASAASNPPSFFTTPTSDGAFELAPT
modifications: phosphorylated S328
In the case of B3, the HBV/mock is 1.337.

B4: Q99956 1xPhospho [S328(100)] (protein, UniProt Q99956 1-384, looked up)
Dual specificity protein …: MEGLGRSCLWLRRELSPPRPRLLLLDCRSRELYESARIGGALSVALPALLLRRLRRGSLSVRALLPGPPLQPPPPAPVLLYDQGGGRRRRGEAEAEAEEWEAESVLGTLLQKLREEGYLAYYLQGGFSRFQAECPHLCETSLAGRAGSSMAPVPGPVPVVGLGSLCLGSDCSDAESEADRDSMSCGLDSEGATPPPVGLRASFPVQILPNLYLGSARDSANLESLAKLGIRYILNVTPNLPNFFEKNGDFHYKQIPISDHWSQNLSRFFPEAIEFIDEALSQNCGVLVHCLAGVSRSVTVTVAYLMQKLHLSLNDAYDLVKRKKSNISPNFNFMGQLLDFERSLRLEERHSQEQGSGGQASAASNPPSFFTTPTSDGAFELAPT
modifications: phosphorylated S328
Consider B4, for which the HBV/mock is listed as 1.364.

B5: Q56P03 2xPhospho [S109(100); S111(100)] (protein, UniProt Q56P03 1-285, looked up)
E2F-associated phosphoprotein: MNRLPDDYDPYAVEEPSDEEPALSSSEDEVDVLLHGTPDQKRKLIRECLTGESESSSEDEFEKEMEAELNSTMKTMEDKLSSLGTGSSSGNGKVATAPTRYYDDIYFDSDSEDEDRAVQVTKKKKKKQHKIPTNDELLYDPEKDNRDQAWVDAQRRGYHGLGPQRSRQQQPVPNSDAVLNCPACMTTLCLDCQRHESYKTQYRAMFVMNCSINKEEVLRYKASENRKKRRVHKKMRSNREDAAEKAETDVEEIYHPVMCTECSTEVAVYDKDEVFHFFNVLASHS
modifications: phosphorylated S109, S111
As for B5, the HBV/mock stood at 1.395.

B6: Q56P03 2xPhospho [S109(99.4); S111(100)] (protein, UniProt Q56P03 1-285, looked up)
E2F-associated phosphoprotein: MNRLPDDYDPYAVEEPSDEEPALSSSEDEVDVLLHGTPDQKRKLIRECLTGESESSSEDEFEKEMEAELNSTMKTMEDKLSSLGTGSSSGNGKVATAPTRYYDDIYFDSDSEDEDRAVQVTKKKKKKQHKIPTNDELLYDPEKDNRDQAWVDAQRRGYHGLGPQRSRQQQPVPNSDAVLNCPACMTTLCLDCQRHESYKTQYRAMFVMNCSINKEEVLRYKASENRKKRRVHKKMRSNREDAAEKAETDVEEIYHPVMCTECSTEVAVYDKDEVFHFFNVLASHS
modifications: phosphorylated S109, S111
As for B6, the HBV/mock came to 1.319.

B7: P24534 1xPhospho [S106(100)] (protein, UniProt P24534 2-225, looked up)
Elongation factor 1-beta: GFGDLKSPAGLQVLNDYLADKSYIEGYVPSQADVAVFEAVSSPPPADLCHALRWYNHIKSYEKEKASLPGVKKALGKYGPADVEDTTGSGATDSKDDDDIDLFGSDDEEESEEAKRLREERLAQYESKKAKKPALVAKSSILLDVKPWDDETDMAKLEECVRSIQADGLVWGSSKLVPVGYGIKKLQIQCVVEDDKVGTDMLEEQITAFEDYVQSMDVAAFNKI
modifications: phospho S106
For B7, the HBV/mock was 1.347.
